Data published in PubChem BioAssay AID2629 (Broad Institute, 2010).
The entries are a selection whose mix differs from that of the whole data set. Activity calls are given as the source filed them. Cut-off read from the data, not from the text of the source: active = inhibition mostly above about 10% (no sharp cut-off); inactive = mostly below about 6.7%.

By UniProt entry, the sequences of proteins in these tests, tags left out.
UniProt Q9QR71, whole entry: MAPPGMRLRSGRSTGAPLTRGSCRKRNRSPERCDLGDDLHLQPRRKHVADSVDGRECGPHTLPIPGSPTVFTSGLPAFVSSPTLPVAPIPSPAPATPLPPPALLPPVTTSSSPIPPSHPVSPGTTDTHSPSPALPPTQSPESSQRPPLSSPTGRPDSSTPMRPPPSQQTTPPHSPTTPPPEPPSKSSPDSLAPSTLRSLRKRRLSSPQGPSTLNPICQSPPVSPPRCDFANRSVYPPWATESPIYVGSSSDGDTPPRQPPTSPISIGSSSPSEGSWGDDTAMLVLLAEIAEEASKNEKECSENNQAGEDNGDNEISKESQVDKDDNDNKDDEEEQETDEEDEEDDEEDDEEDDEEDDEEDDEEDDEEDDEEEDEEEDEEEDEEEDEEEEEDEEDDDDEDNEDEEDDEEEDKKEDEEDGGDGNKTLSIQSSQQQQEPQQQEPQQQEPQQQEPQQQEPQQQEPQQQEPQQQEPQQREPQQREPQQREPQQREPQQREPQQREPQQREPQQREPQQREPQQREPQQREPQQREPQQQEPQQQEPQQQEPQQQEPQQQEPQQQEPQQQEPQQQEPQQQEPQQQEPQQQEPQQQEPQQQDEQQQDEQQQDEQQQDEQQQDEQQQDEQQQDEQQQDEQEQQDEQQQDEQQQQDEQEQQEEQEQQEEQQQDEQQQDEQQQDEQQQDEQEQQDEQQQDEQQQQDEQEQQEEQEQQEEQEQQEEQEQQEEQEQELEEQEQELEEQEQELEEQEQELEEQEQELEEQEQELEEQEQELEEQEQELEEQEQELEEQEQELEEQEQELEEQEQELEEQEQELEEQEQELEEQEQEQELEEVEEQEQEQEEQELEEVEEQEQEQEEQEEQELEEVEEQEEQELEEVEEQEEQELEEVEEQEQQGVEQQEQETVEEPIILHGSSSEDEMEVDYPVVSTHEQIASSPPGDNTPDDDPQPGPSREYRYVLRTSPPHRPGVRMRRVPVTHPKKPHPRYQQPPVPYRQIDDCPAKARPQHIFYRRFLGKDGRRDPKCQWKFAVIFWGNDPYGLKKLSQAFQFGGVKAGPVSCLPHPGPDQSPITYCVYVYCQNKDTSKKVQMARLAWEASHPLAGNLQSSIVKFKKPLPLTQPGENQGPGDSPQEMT

What follows are compounds tested against Protein LANA1 (Human herpesvirus 8 type P (isolate GK18)) (UniProt Q9QR71) (assay: blockers of LANA interaction with H2A/H2B – biochemical, FP readout, HTS, primary screen (AID 2629)). Conditions: cell-free LANA-H2A/H2B peptide, fluorescence polarization; stronger effect = higher value; concentration not given here.

SMILES	inhibition
COP1(=S)c2c(C)nn(CCC#N)c2N=C(c2ccc(F)cc2)N1C (stereo unspecified)	inactive: -3.27%
CP(=O)(Nc1ccc(SC(F)(F)F)cc1)Oc1ccc(Cl)cc1 (stereo unspecified)	inactive: -5.98%
Cc1cccc(C)c1OP(C)(=O)Nc1ccc(SC(F)(F)F)cc1 (stereo unspecified)	inactive: -3.3%
CP(=O)(Oc1ccccc1)OC(c1ccccc1)C(F)(F)F (stereo unspecified)	inactive: -0.169%
CP(=O)(NC(=O)Nc1ccccc1)Oc1ccccc1 (stereo unspecified)	inactive: -1.92%
O=C(COc1ccccc1)OC1CN2CCC1CC2 (stereo unspecified)	inactive: -0.136%
CCc1ccc(OP(C)(=O)N2CCN(c3ccc([N+](=O)[O-])cc3)CC2)cc1 (stereo unspecified)	inactive: -8.48%
O=C(Nc1ccncc1[N+](=O)[O-])c1ccc([N+](=O)[O-])cc1[N+](=O)[O-]	inactive: 1.8%
Cc1cc(C)cc(OP(C)(=O)Nc2ccc(SC(F)(F)F)cc2)c1 (stereo unspecified)	inactive: -2.92%
O=C(OC1CN2CCC1CC2)c1cccc([N+](=O)[O-])c1 (stereo unspecified)	inactive: 1.16%
CCOP(C)(=S)SCC(=O)NC(C)C(=O)O (stereo unspecified)	inactive: -4.2%
O=[N+]([O-])c1cc([N+](=O)[O-])c(O)c([N+](=O)[O-])c1.c1ccc(Oc2ccncc2)cc1	inactive: 3.01%
CCOC(=O)c1ccc(NC(=O)C(C)(CCl)SC)cc1 (stereo unspecified)	inactive: 0.773%
CCOC(=O)c1ccc(NP(C)(=O)Oc2ccc(OC)cc2)cc1 (stereo unspecified)	inactive: -4.22%
CCC(C)N(CC(C)C)C(=S)SC(NC(C)=O)C(Cl)(Cl)Cl (stereo unspecified)	inactive: 1.89%
CP(=O)(Nc1ccccn1)Oc1ccc(Cl)cc1 (stereo unspecified)	inactive: 0.908%
CCOC(=O)Nc1ccc([As](=O)(O)O)c(O)c1	inactive: -1.48%
Cc1cc(SC(NC(=O)c2ccccc2)C(Cl)(Cl)Cl)nc(C(C)C)n1 (stereo unspecified)	inactive: -1.29%
CP(=S)(Nn1cnnc1)Oc1ccccc1 (stereo unspecified)	inactive: 0.59%
CCOC(=O)Nc1cccc([As](=O)(O)O)c1	inactive: -1.11%
Cc1cc(SC(NC=O)C(Cl)(Cl)Cl)ncn1 (stereo unspecified)	inactive: -1.17%
O=P(Nc1ccccn1)(c1cccc2ccccc12)c1cccc2ccccc12	inactive: 1.16%
COc1ccccc1OP(C)(=O)Nc1ccccc1 (stereo unspecified)	inactive: 3.09%
CP(=O)(Nc1ccccc1Br)Oc1ccccc1 (stereo unspecified)	inactive: 10%
O=[N+]([O-])c1ccc(Nc2ccc(Oc3ccc([N+](=O)[O-])cc3[N+](=O)[O-])cc2)c([N+](=O)[O-])c1	inactive: 2.31%
O=[N+]([O-])c1cc([N+](=O)[O-])c(Nc2cccnc2)c([N+](=O)[O-])c1	inactive: -5.64%
